In publication PMC6211256, “From cycloheptathiophene-3-carboxamide to oxazinone-based derivatives as allosteric HIV-1 ribonuclease H inhibitors” (Journal of Enzyme Inhibition and Medicinal Chemistry, 2018):

Target: p66/p51 HIV-1 RT (Human immunodeficiency virus type 1 group M subtype B, UniProt P04585)
Experiment: Differential scanning fluorimetry (thermal stability of RT)
Assay type: binding
Conditions: increasing concentration of compound; 100 ng/µl HIV-1 RT

CCOc1ccc(N2CC(C)CN3C2=NC2C3C(=O)N(CC(=O)OCc3ccccc3)C(=O)N2C)cc1 (stereo not shown)
change of RT melting temperature (Tm): decreased the Tm
